# Test system: S. aureus (ATCC 29213)
# Settings: 8× the MIC
structure (smiles),measurement,setting,value
"CC(=O)NC[C@H]1CN(c2ccc(N3CCOCC3)c(F)c2)C(=O)O1 [LNZ, linezolid]",Resistance frequency (Expt. 1),72 h,<2.63 × 10^−10
same,Resistance frequency (Expt. 2),72 h,<1.81 × 10^−10
same,Resistance frequency (average or greater #),two independent experiments,<2.63 × 10^−10
